Results of unrelated studies side by side (data: NIAID ChemDB).

Common to all: tests in culture; agent: Respiratory syncytial virus

ECn: concentration that inhibits the pathogen or its effect by n%.

smiles | cells | strain | read-out | read by | result
CCn1nc(CC(=O)NN=C(C)C)nc1C |  |  | MIC |  | >400 µg/mL
Cc1ccc(S(=O)(=O)N(CCC(N)=O)CCC(N)=O)cc1Nc1nc(Nc2ccc(Nc3ccc(-c4ccc(Nc5ccc(Nc6nc(Nc7cc(S(=O)(=O)N(CCC(N)=O)CCC(N)=O)ccc7C)nc(Nc7cc(S(=O)(=O)N(CCC(N)=O)CCC(N)=O)ccc7C)n6)cc5S(=O)(=O)[O-])cc4S(=O)(=O)O)c(S(=O)(=O)O)c3)c(S(=O)(=O)[O-])c2)nc(Nc2cc(S(=O)(=O)N(CCC(N)=O)CCC(N)=O)ccc2C)n1 | HFF | A2 | EC50 | ELISA | >25 µM
c1ccc(-c2nn3c(-c4cn(-c5ccccc5)nc4-c4ccccc4)nnc3s2)cc1 | HeLa |  | EC50 | cytopathic effect | >3.2 µg/mL
CCn1nc(Cc2n[nH]c(=S)o2)nc1C |  |  | MIC |  | >400 µg/mL
Cc1cn([C@@H]2O[C@@H](CO)[C@H](O)[C@H]2O)c(=O)[nH]c1=O | VERO B | A2 | EC50 | cytopathic effect | >1000 µM
S=c1[nH]nc(-c2cn(-c3ccccc3)nc2-c2ccccc2)o1 | HeLa |  | EC50 | cytopathic effect | >16 µg/mL
Nc1ncnc2c1ncn2[C@@H]1O[C@@H](CO)[C@H](O)[C@H]1O | VERO B | A2 | EC50 | cytopathic effect | >1000 µM
NC(=O)CCN(CCC(N)=O)S(=O)(=O)c1cccc(Nc2nc(Nc3cccc(S(=O)(=O)N(CCC(N)=O)CCC(N)=O)c3)nc(Nc3ccc(-c4ccc(Nc5nc(Nc6cccc(S(=O)(=O)N(CCC(N)=O)CCC(N)=O)c6)nc(Nc6cccc(S(=O)(=O)N(CCC(N)=O)CCC(N)=O)c6)n5)cc4S(=O)(=O)O)c(S(=O)(=O)O)c3)n2)c1 | HEP-2 | 47063/TYPE B | EC50 | cytopathic effect | 0.25 µg/mL
Nc1ncnc2c1ncn2[C@@H]1C[C@H](NC=O)[C@@H](O)[C@H]1O | HFF |  | EC50 |  | >100 µg/mL
O=c1cc(-c2ccc(O)c(O)c2)oc2cc(OC3OC(CO)C(O)C(O)C3O)cc(O)c12 | HEP-2 |  | EC50 | cytopathic effect | >25 µg/mL
Fc1cccc2c1CSSC2 | HeLa | LONG | EC50 | cytopathic effect | >284 µM
CC(C)Oc1ccccc1CNC(=O)c1ccc2cnccc2n1 | MA-104 | A2 | EC50 | cytopathic effect | 19 µM
CC=NC(=N)c1nc(-c2ccc(OC)cc2)n(C/C=C/c2ccccc2)n1 | HeLa | LONG | EC50 | cytopathic effect | ≥100 µg/mL
Cc1ccc(O)c(Cn2c(NCCc3cc4ccccc4[nH]3)nc3ccccc32)n1 | HeLa |  | EC50 | cytopathic effect | 100 µM
CC=NC(=N)c1nc(-c2ccc(C)cc2)n(COCCO)n1 | HeLa | LONG | EC50 | cytopathic effect | >100 µg/mL
CCOC(=O)/C=C\C=C\[C@H]1O[C@@H](n2ccc(=O)[nH]c2=O)[C@H](O)[C@@H]1O | HeLa |  | EC50 |  | ≥200 µM
Cc1cc(C)c2c(c1)nc(NC1CCCCC1)n2Cc1nc(C)ccc1O | HeLa |  | EC50 | cytopathic effect | 100 µM
NNC(=O)Cc1nc2n(n1)CCCCC2 |  |  | MIC |  | >400 µg/mL
O=C(/C=C/c1ccc(O)c(O)c1)O[C@@H]1CC(O)(C(=O)O)C[C@@H](OC(=O)/C=C/c2ccc(O)c(O)c2)C1O | HEP-2 | Washington (type B) | EC50 | cytopathic effect | 0.167 µg/mL
Cc1cc(C)c2c(c1)nc(Nc1ccc(CCN)cc1)n2Cc1nc(C)ccc1O | HeLa |  | EC50 | cytopathic effect | 6.31 µM
CC=NC(=N)c1nc(-c2ccc(C)cc2)n(Cc2ccccc2)n1 | HeLa | LONG | EC50 | cytopathic effect | >20 µg/mL
CN(C)c1ccc2c(c1)CSSC2 | HeLa | LONG | EC50 | cytopathic effect | 37.9 µM
O=C(NC1CC1)c1cc2c(s1)-c1ccccc1N(C(=O)c1ccc(NC(=O)c3ccccc3-c3ccccc3)cc1)CC2 | HeLa | A2 (A) | EC50 | plaque count | 0.28 µM
Cc1cc(C)c2nc(NCCC3CCCN3C)n(Cc3nc(C)ccc3O)c2c1 | HeLa |  | EC50 | cytopathic effect | 0.04 µM
CC1(C)[C@@H](CCO)C[C@H]1n1nnc2c(=O)[nH]c(N)nc21 | HeLa |  | EC50 | cytopathic effect | >400 µg/mL
CC(NC(=S)Nc1ccc(NC(=O)c2nccc3ccccc23)cc1)c1cc2ccccc2o1 | HFF | A2 | EC50 | ELISA | >10 µg/mL
C=C(N=CC)c1nc(-c2ccccc2)n([C@@H]2O[C@H](CO)[C@@H](O)[C@H]2O)n1 | HeLa | LONG | EC50 | cytopathic effect | 100 µg/mL
CC1(C)[C@@H](CCO)C[C@H]1n1nnc2c(N)nc(N)nc21 | HeLa |  | EC50 | cytopathic effect | >400 µg/mL
CC1(C)[C@@H](CO)CC[C@@]1(C)Cn1cc(Br)c(=O)[nH]c1=O | HeLa |  | EC50 | cytopathic effect | >400 µg/mL
c1ccc2c(c1)CSSC2 | HeLa | Clinical isolate SM61-48 (B) | EC50 | cytopathic effect | 5.6 µM
Cc1ccc(O)c(Cn2c(NCCOCCO)nc3ccccc32)n1 | HeLa |  | EC50 | cytopathic effect | 79.43 µM
C/C(=N\NC(=O)c1ccncc1)c1ccc(Br)cc1 | HeLa cells |  | EC50 | MTT | >4 µg/mL
COc1cc(OC)c(NC(=S)Nc2ccc(NC(=O)c3ccco3)cc2)cc1Cl | HFF | A2 | EC50 |  | >20 µM
CCOC(=O)CCCNc1nc2ccccc2n1Cc1nc(C)ccc1O | HeLa |  | EC50 | cytopathic effect | 100 µM
O=c1[nH]n2c(-c3cn(-c4ccccc4)nc3-c3ccccc3)nnc2sc1=O | HeLa |  | EC50 | cytopathic effect | >80 µg/mL
Nc1ccn([C@H]2C[C@@H](O)[C@H](CO)O2)c(=O)n1 | VERO B | A2 | EC50 | cytopathic effect | >10 µM
CC1(C)[C@@H](CO)CC[C@@]1(C)Cn1cnc2c(=O)[nH]cnc21 | HeLa |  | EC50 | cytopathic effect | >400 µg/mL
Cc1cc(C)c2nc(NC3CCCCC3)n(Cc3nc(C)ccc3O)c2c1 | HeLa |  | EC50 | cytopathic effect | 100 µM
CC1(C)[C@@H](CO)CC[C@@]1(C)Cn1nnc2c(=O)[nH]cnc21 | HeLa |  | EC50 | cytopathic effect | >400 µg/mL
N#Cc1cc(NC(=O)c2ccccc2)c(=O)n2c1[nH]c1ccccc12 | HEP-2 | LONG | EC50 | plaque count | 0.1 µg/mL
CC=NC(=N)c1nc(-c2ccccc2)n(COCCO)n1 | HeLa | LONG | EC50 | cytopathic effect | >100 µg/mL
N#Cc1cc(C#N)c2[nH]c3ccccc3n2c1=O | HEP-2 |  | EC50 | plaque count | 1.5 µg/mL
O=C1CSc2nnc(-c3cn(-c4ccccc4)nc3-c3ccccc3)n2N1 | HeLa |  | EC50 | cytopathic effect | >16 µg/mL
CCOC(=O)c1cc(C#N)c2[nH]c3ccccc3n2c1=O | HEP-2 |  | EC50 | syncytia | 36.5 µg/mL
CC=NC(=N)c1nc(-c2ccccc2)n(C/C=C/c2ccccc2)n1 | HeLa | LONG | EC50 | cytopathic effect | >20 µg/mL
CC1(C)[C@@H](CCO)C[C@H]1n1nnc2c(=O)[nH]cnc21 | HeLa |  | EC50 | cytopathic effect | >400 µg/mL
CCOC(=O)CSc1nnc(-c2cn(-c3ccccc3)nc2-c2ccccc2)n1N | HeLa |  | EC50 | cytopathic effect | >16 µg/mL
CCn1nc(CC(=O)N/N=C/c2ccco2)nc1C |  |  | MIC |  | >400 µg/mL
CC(C)CS[C@@H]1C[C@H](n2cnc3c(N)ncnc32)[C@@H](O)[C@H]1O | HeLa |  | EC50 | cytopathic effect | >80 µg/mL
CCOC(=O)c1cc(C(=O)O)c(=O)n2c1[nH]c1ccccc12 | HEP-2 | LONG | EC50 | plaque count | >40 µg/mL
Nn1c(SCC(=O)O)nnc1-c1cn(-c2ccccc2)nc1-c1ccccc1 | HeLa |  | EC50 | cytopathic effect | >80 µg/mL
c1ccc(Oc2ccc3c(c2)CSSC3)cc1 | HeLa | LONG | EC50 | cytopathic effect | >36 µM
CCSC1NN=C(Cc2nc(C)n(C)n2)N1c1ccccc1 |  |  | MIC |  | 400 µg/mL
Cc1nn2c(-c3cn(-c4ccccc4)nc3-c3ccccc3)nnc2s1 | HeLa |  | EC50 | cytopathic effect | >16 µg/mL
Cc1ccc(O)c(Cn2c(NCC3COC(C)(C)O3)nc3ccccc32)n1 | HeLa |  | EC50 | cytopathic effect | 3.981 µM
O=C(Nc1ccc(C(=O)N2CCc3cc(C(=O)N4CCOCC4)sc3-c3ccccc32)cc1)c1ccccc1-c1ccccc1 | HeLa | LONG | EC50 | plaque count | 4.3 µM
CCCN(CCC)C(=O)c1cccc(Nc2nc(Nc3cccc(C(=O)N(CCC)CCC)c3)nc(Nc3ccc(Nc4ccc(-c5ccc(Nc6ccc(Nc7nc(Nc8cccc(C(=O)N(CCC)CCC)c8)nc(Nc8cccc(C(=O)N(CCC)CCC)c8)n7)cc6S(=O)(=O)[O-])cc5S(=O)(=O)O)c(S(=O)(=O)O)c4)c(S(=O)(=O)[O-])c3)n2)c1 | HFF | A2 | EC50 | ELISA | >25 µM

Repeating the final 5 entries:

smiles | cells | strain | read-out | read by | result
CCSC1NN=C(Cc2nc(C)n(C)n2)N1c1ccccc1 |  |  | MIC |  | 400 µg/mL
Cc1nn2c(-c3cn(-c4ccccc4)nc3-c3ccccc3)nnc2s1 | HeLa |  | EC50 | cytopathic effect | >16 µg/mL
Cc1ccc(O)c(Cn2c(NCC3COC(C)(C)O3)nc3ccccc32)n1 | HeLa |  | EC50 | cytopathic effect | 3.981 µM
O=C(Nc1ccc(C(=O)N2CCc3cc(C(=O)N4CCOCC4)sc3-c3ccccc32)cc1)c1ccccc1-c1ccccc1 | HeLa | LONG | EC50 | plaque count | 4.3 µM
CCCN(CCC)C(=O)c1cccc(Nc2nc(Nc3cccc(C(=O)N(CCC)CCC)c3)nc(Nc3ccc(Nc4ccc(-c5ccc(Nc6ccc(Nc7nc(Nc8cccc(C(=O)N(CCC)CCC)c8)nc(Nc8cccc(C(=O)N(CCC)CCC)c8)n7)cc6S(=O)(=O)[O-])cc5S(=O)(=O)O)c(S(=O)(=O)O)c4)c(S(=O)(=O)[O-])c3)n2)c1 | HFF | A2 | EC50 | ELISA | >25 µM

Rows are shuffled and stem from different studies. An empty or dashed field is not shown.